Values of other authors, collected in article PMC6838151, “New diphenylphosphane derivatives of ketoconazole are promising antifungal agents” (Scientific Reports, 2019).

Tested on: HepG2 cells
Conditions: cited from earlier work

For CC(=O)N1CCN(c2ccc(OCC3COC(Cn4ccnc4)(c4ccc(Cl)cc4Cl)O3)cc2)CC1 (stereo not shown) [Ke, ketoconazole], the “concentration at which cytotoxic effects started to be noticed” value is given as 50 µM.
